Compound potency records, mixed from different reports. Data source: NIAID ChemDB in PubChem.

Shared fields: tests in culture

An empty or dashed field is not shown.

structure	agent	strain	method	conditions	read-out	dose	value
CO[C@H]1/C=C/O[C@@]2(C)Oc3c(C)c(O)c4c(=O)c(c5oc6cc(N7CCN(CC(C)C)CC7)cc(=O)c6nc5c4c3=C2O)NC(=O)/C(C)=C\C=C\[C@H](C)[C@H](O)[C@@H](C)[C@@H](O)[C@@H](C)[C@H](OC(C)=O)[C@@H]1C	Mycobacterium ulcerans	Isolate 94-539	-	-	MBC	-	0.012 µg/mL
CO[C@@]1(NC(=O)CCCC(N)C(=O)O)C(=O)N2C(C(=O)O)=C(COC(C)=O)CSC21	Mycobacterium fortuitum	1004-8	-	-	MIC	-	>100 µg/mL
CN(C)c1ccc(CCNc2ncnc3ccsc23)cc1	Mycobacterium bovis BCG	-	luminescence	-	MIC50	-	>50 µM
NNC(=O)c1ccncc1	Mycobacterium avium complex	N-962 (HIV+)	-	-	MIC	-	64 µg/mL
CO[C@H]1/C=C/O[C@@]2(C)Oc3c(C)c(O)c4c(O)c(cc(O)c4c3C2=O)NC(=O)/C(C)=C\C=C\[C@H](C)[C@H](O)[C@@H](C)[C@@H](O)[C@@H](C)[C@H](OC(C)=O)[C@@H]1C	Mycobacterium chelonae	EO-P-1	-	-	MIC	-	25 µg/mL
CO[C@@]1(NC(=O)CCCC(N)C(=O)O)C(=O)N2C(C(=O)O)=C(COC(N)=O)CSC21	Mycobacterium fortuitum	AO5	-	-	MIC	-	>100 µg/mL
CC[C@H]1OC(=O)[C@H](C)[C@@H](O[C@H]2C[C@@](C)(OC)[C@@H](O)[C@H](C)O2)[C@H](C)[C@@H](O[C@@H]2O[C@H](C)C[C@H](N(C)C)[C@H]2O)[C@](C)(OC)C[C@@H](C)C(=O)[C@H](C)[C@@H](O)[C@]1(C)O	Mycobacterium avium complex	N-265 (HIV-)	-	-	MIC	-	2 µg/mL
CCCCCCCCCCCCCCCCO/N=C1\[C@H](C)CC(C)(O)[C@H](O[C@@H]2O[C@H](C)C[C@H](N(C)C)[C@H]2O)[C@@H](C)[C@H](OC2C[C@@](C)(OC)[C@@H](O)[C@H](C)O2)[C@@H](C)C(=O)O[C@H](CC)[C@@](C)(O)[C@H](O)[C@H]1C	Mycobacterium avium complex	20039 (clarithromycin-susceptible)	-	-	MIC	-	>50 µg/mL
CCCCCCCCCCCCCCC(=O)NC(CCC(=O)O)(CCC(=O)O)CCC(=O)O	Mycobacterium chelonae	EO-P-1	-	-	MIC	-	54 µg/mL
O=S1(=O)CCN(c2ccc(CNc3ncnc4ccsc34)cc2)CC1	Mycobacterium bovis BCG	-	luminescence	-	MIC50	-	>20 µM
CCCCCCCCCCCCCCCCCCCCCCNC(=O)NC(CCC(=O)O)(CCC(=O)O)CCC(=O)O	Mycobacterium abscessus	AAy-P-1	-	-	MIC	-	72 µg/mL
Cc1ccc2ncnc(NCCc3ccc(OC(F)(F)F)cc3)c2c1	Mycobacterium bovis BCG	-	luminescence	-	MIC50	-	>20 µM
CCc1nc2cc(F)ccn2c1C(=O)NCc1ccc(N2CC=C(c3ccc(OC(F)(F)F)cc3)CC2)c(F)c1.Cl	Mycobacterium avium	-	fluorescence	-	inhibition	0.0079 µM	85%
CO[C@@]1(NC(=O)Cc2cccs2)C(=O)N2C(C(=O)O)=C(COC(N)=O)CS[C@@H]21	Mycobacterium fortuitum	1263	-	-	MIC	-	25 µg/mL
CCc1nc2cc(F)ccn2c1C(=O)NCc1ccc(OC2CC(Oc3ccc(OC(F)(F)F)cc3)C2)c(F)c1.Cl	Mycobacterium avium	-	fluorescence	-	inhibition	0.054 µM	85%
COc1ccc2oc(=O)n(-c3ccc(C)cc3)c(=S)c2c1	Mycobacterium kansasii	6509/96	-	14 d	MIC	-	8 µM
COC(=O)c1ccc2c(Nc3ccc(Oc4ccc(C(F)(F)F)cc4)cc3)ncnc2c1	Mycobacterium bovis BCG	-	luminescence	-	MIC50	-	>10 µM
CC[C@H]1OC(=O)[C@H](C)[C@@H](OC(=O)CCc2ccccc2)[C@H](C)[C@@H](O[C@@H]2O[C@H](C)C[C@H](N(C)C)[C@H]2O)C(C)(O)C[C@@H](C)/C(=N\OCCCOc2ccccc2)[C@H](C)[C@@H](O)[C@]1(C)O	Mycobacterium avium complex	20039 (clarithromycin-susceptible)	-	-	MIC	-	3.13 µg/mL
FC(F)(F)c1ccc(Oc2ccc(Nc3ncnc4cc(Br)ccc34)cc2)cc1	Mycobacterium bovis BCG	-	luminescence	-	MIC50	-	>20 µM
Cc1nc2ccccn2c1C(=O)NCc1cccnc1	Mycobacterium ulcerans	-	fluorescence	-	MIC50	-	>10 µg/mL
CCCCCCCCCCN(CCCCCCCCCC)C(=O)NC(CCC(=O)O)(CCC(=O)O)CCC(=O)O	Mycobacterium abscessus	AAy-P-1	-	-	MIC	-	72 µg/mL
CC[C@H]1OC(=O)[C@H](C)[C@@H](OC2C[C@@](C)(OC)[C@@H](O)[C@H](C)O2)[C@H](C)[C@@H](O[C@@H]2O[C@H](C)C[C@H](N(C)C)[C@H]2O)C(C)(O)C[C@@H](C)/C(=N\OCCc2ccccc2)[C@H](C)[C@@H](O)[C@]1(C)O	Mycobacterium avium complex	20092 (clarithromycin-resistant)	-	-	MIC	-	>50 µg/mL
Nc1ccc(S(=O)(=O)c2ccc(N)cc2)cc1	Mycobacterium avium complex	DW5	-	-	MIC	-	64 µg/mL
Fc1ccc(-n2c(=S)oc3ccc(Cl)cc3c2=S)cc1	Mycobacterium kansasii	6509/96	-	14 d	MIC	-	8 µM
CCCCCCC(=O)O[C@H]1[C@H](C)OC(O[C@H]2[C@H](C)[C@@H](O[C@@H]3O[C@H](C)C[C@H](N(C)C)[C@H]3O)C(C)(O)C[C@@H](C)/C(=N\OCCCOc3ccccc3)[C@H](C)[C@@H](O)[C@](C)(O)[C@@H](CC)OC(=O)[C@@H]2C)C[C@@]1(C)OC	Mycobacterium avium complex	20092 (clarithromycin-resistant)	-	-	MIC	-	3.13 µg/mL
Cc1ccc2nc(C)c(C(=O)NCc3ccc4c(c3)OCCO4)n2c1	Mycobacterium avium	-	fluorescence	-	inhibition	0.86 µM	85%
CO[C@H]1/C=C/O[C@@]2(C)Oc3c(C)c(O)c4c(O)c(c5c(c4c3C2=O)NC2(CCN(CC(C)C)CC2)N=5)=NC(=O)/C(C)=C\C=C\[C@H](C)[C@H](O)[C@@H](C)[C@@H](O)[C@@H](C)[C@H](OC(C)=O)[C@@H]1C	Mycobacterium avium complex	N-961 (HIV+)	-	-	MIC	-	0.8 µg/mL
Fc1ccc2oc(=S)n(-c3cccc(Cl)c3)c(=S)c2c1	Mycobacterium kansasii	My 235/80	-	14 d	MIC	-	4 µM
CO[C@H]1/C=C/O[C@@]2(C)Oc3c(C)c(O)c4c(O)c(c5c(c4c3C2=O)NC2(CCN(CC(C)C)CC2)N=5)=NC(=O)/C(C)=C\C=C\[C@H](C)[C@H](O)[C@@H](C)[C@@H](O)[C@@H](C)[C@H](OC(C)=O)[C@@H]1C	Mycobacterium avium intracellulare	92	-	-	MIC	-	0.5 µg/mL
Cc1ccn2c(C(=O)NCc3ccc(C4CCN(c5ccc(OC(C)C)cc5)CC4)c(F)c3)c(C)nc2c1	Mycobacterium avium	-	fluorescence	-	inhibition	0.1 µM	85%
CCCCCCCCCCCC(CCCCCCCCCCC)OC(=O)NC(CCC(=O)O)(CCC(=O)O)CCC(=O)O	Mycobacterium abscessus	AAy-P-1	-	-	MIC	-	27 µg/mL
CCc1nc2ccc(Cl)cn2c1C(=O)NCc1ccc(-c2ccccc2)cc1	Mycobacterium ulcerans	-	fluorescence	-	MIC50	-	0.001–0.01 µg/mL
CC(C)N=C(N)/N=C(\N)NOCCCOc1cc(Cl)c(Cl)cc1Cl	Mycobacterium avium complex	3176	-	-	MIC	-	32 µg/mL
O=c1oc2ccc(F)cc2c(=S)n1-c1ccc(C(F)(F)F)cc1	Mycobacterium kansasii	6509/96	-	14 d	MIC	-	8 µM
COc1ccn2nc(C)c(C(=O)NCc3ccc(N4CCC(c5ccc(OC(F)(F)F)cc5)CC4)cc3)c2c1	Mycobacterium avium	-	fluorescence	-	inhibition	0.028 µM	85%
CCCCCCCCN(CCCCCCCC)C(=O)NC(CCC(=O)O)(CCC(=O)O)CCC(=O)O	Mycobacterium chelonae	EO-P-1	-	-	MIC	-	54 µg/mL
CO[C@@]1(NC(=O)Cc2ccccc2)C(=O)N2C(C(=O)[O-])=C(CSc3nnc(C)s3)CSC21	Mycobacterium fortuitum	AO5	-	-	MIC	-	25 µg/mL
CC[C@H]1OC(=O)[C@H](C)[C@@H](OC(=O)CC2CCCCC2)[C@H](C)[C@@H](O[C@@H]2O[C@H](C)C[C@H](N(C)C)[C@H]2O)C(C)(O)C[C@@H](C)/C(=N\OCCCOc2ccccc2)[C@H](C)[C@@H](O)[C@]1(C)O	Mycobacterium avium complex	20092 (clarithromycin-resistant)	-	-	MIC	-	12.5 µg/mL
CCc1nc2ccc(Cl)cn2c1C(=O)NCc1ccc(C2CCN(c3ccc(OC(F)(F)F)cc3)CC2)cc1F	Mycobacterium avium	-	fluorescence	-	inhibition	0.0031 µM	85%
CCCCCCCCCCCCCCCCCCNC(=O)NC(CCC(=O)O)(CCC(=O)O)CCC(=O)O	Mycobacterium abscessus	AAy-P-1	-	-	MIC	-	9 µg/mL
C[C@@H]1CN(c2c(F)c(N)c3c(=O)c(C(=O)O)cn(C4CC4)c3c2F)C[C@H](C)N1	Mycobacterium avium complex	N-238 (HIV-)	-	-	MIC	-	1 µg/mL
COc1ccc2oc(=O)n(-c3ccc(Br)cc3)c(=S)c2c1	Mycobacterium kansasii	6509/96	-	14 d	MIC	-	32 µM
CCc1nc2cc(F)ccn2c1C(=O)NCc1ccc(N2CCN(c3ccc(OC(F)(F)F)cc3)[C@@H](C)C2)c(F)c1F.Cl	Mycobacterium avium	-	fluorescence	-	inhibition	0.011 µM	85%
CNC(=O)C1CCC(NC(=O)c2c(Cl)nc3ccccn23)CC1	Mycobacterium ulcerans	-	fluorescence	-	MIC50	-	>10 µg/mL
CC[C@H]1OC(=O)[C@H](C)[C@@H](O[C@H]2C[C@@](C)(OC)[C@@H](OC(C)=O)[C@H](C)O2)[C@H](C)[C@@H](O[C@@H]2O[C@H](C)C[C@H](N(C)C)[C@H]2O)C(C)(O)C[C@@H](C)/C(=N\OC)[C@H](C)[C@@H](O)[C@]1(C)O	Mycobacterium avium complex	20096 (clarithromycin-resistant)	-	-	MIC	-	>50 µg/mL
CO[C@@]1(NC(=O)C(C(=O)O)c2ccc(O)cc2)C(=O)N2C(C(=O)O)=C(CSc3nnnn3C)CO[C@@H]21	Mycobacterium fortuitum	1030-8	-	-	MIC	-	50 µg/mL
Cc1ccn2c(C(=O)NCc3ccc(Oc4ccc(C(F)(F)F)cc4)cc3)c(C)nc2c1	Mycobacterium avium	-	fluorescence	-	inhibition	0.44 µM	85%
CCCCC(=O)O[C@H]1[C@H](C)OC(O[C@H]2[C@H](C)[C@@H](O[C@@H]3O[C@H](C)C[C@H](N(C)C)[C@H]3O)C(C)(O)C[C@@H](C)/C(=N\OCCCOc3ccccc3)[C@H](C)[C@@H](O)[C@](C)(O)[C@@H](CC)OC(=O)[C@@H]2C)C[C@@]1(C)OC	Mycobacterium avium complex	20039 (clarithromycin-susceptible)	-	-	MIC	-	1.56 µg/mL
COc1ccn2c(C(=O)NCc3ccc(N4CCN(c5ccc(OC(F)(F)F)cc5)[C@@H](C)C4)c(F)c3)c(C)nc2c1	Mycobacterium avium	-	fluorescence	-	inhibition	0.37 µM	85%
O=C(NCC(O)c1ccccc1C(F)(F)F)c1c(Cl)nc2ccccn12	Mycobacterium ulcerans	-	fluorescence	-	MIC50	-	1–10 µg/mL

A second listing of 6 rows from above:

{"structure": "Fc1ccc2oc(=S)n(-c3cccc(Cl)c3)c(=S)c2c1", "agent": "Mycobacterium kansasii", "strain": "My 235/80", "conditions": "14 d", "read-out": "MIC", "value": "4 µM"}
{"structure": "CN(C)c1ccc(CCNc2ncnc3ccsc23)cc1", "agent": "Mycobacterium bovis BCG", "method": "luminescence", "read-out": "MIC50", "value": ">50 µM"}
{"structure": "CCc1nc2cc(F)ccn2c1C(=O)NCc1ccc(N2CCN(c3ccc(OC(F)(F)F)cc3)[C@@H](C)C2)c(F)c1F.Cl", "agent": "Mycobacterium avium", "method": "fluorescence", "read-out": "inhibition", "dose": "0.011 µM", "value": "85%"}
{"structure": "NNC(=O)c1ccncc1", "agent": "Mycobacterium avium complex", "strain": "N-962 (HIV+)", "read-out": "MIC", "value": "64 µg/mL"}
{"structure": "CO[C@H]1/C=C/O[C@@]2(C)Oc3c(C)c(O)c4c(O)c(c5c(c4c3C2=O)NC2(CCN(CC(C)C)CC2)N=5)=NC(=O)/C(C)=C\\C=C\\[C@H](C)[C@H](O)[C@@H](C)[C@@H](O)[C@@H](C)[C@H](OC(C)=O)[C@@H]1C", "agent": "Mycobacterium avium intracellulare", "strain": "92", "read-out": "MIC", "value": "0.5 µg/mL"}
{"structure": "Cc1ccc2ncnc(NCCc3ccc(OC(F)(F)F)cc3)c2c1", "agent": "Mycobacterium bovis BCG", "method": "luminescence", "read-out": "MIC50", "value": ">20 µM"}

Conditions beyond the fields shown may differ between rows. A number after MIC or MFC names an inhibition level or a share of isolates. Percent inhibition refers to the dose given; in toxicity tests it is the harm to the cells. Two numbers with a dash give a range or band.